Record: PubChem BioAssay AID1259414 (Drosophila RNAi Screening Center, 2018)

Screen: 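Genome-wide screen for host control of endosymbiont load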 (primary screen)
System: Drosophila JW18 cells infected with Wolbachia
Reagents: long dsRNA against Drosophila genes, 0.25 µg dsRNA per well of a 384-well plate
Time to read-out: 5 days
Treatment: cells persistently infected with Wolbachia before knock-down; no added drug
Detection: 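Imaged fluorescence in situ signal for Wolbachia 23S rRNA per DAPI-counted host cell, given as a robust z-score within each plate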
Direction: Wolbachia per cell robust z: higher = more Wolbachia per host cell than the plate typical
Rule for the call: 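Active if absolute robust z reaches 1.5 in two or more of three replicates, leaving out multi- or no-target dsRNAs, genes unexpressed in JW18 and A1 wells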
The screen tested about 24,000 reagents; shown is an unselected part of those with a known target gene and a result. Of all reagents, about 1,210 (5%) were called active. 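Inactive calls also include excluded dsRNAs with several or no targets, genes unexpressed in JW18, and well A1, regardless of score.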 The numbers tell different reagents against one gene apart. Names joined by + are all predicted targets of the reagent.

| Wolbachia per cell robust z, rep 1 | Wolbachia per cell robust z, rep 2 | Wolbachia per cell robust z, rep 3 | activity call | gene | reagent no. |
| --- | --- | --- | --- | --- | --- |
| 1.62 | -1.95 | 1.45 | inactive | CG17816 | 1 |
| -6.55 | -0.517 | 0.491 | inactive | CG17816 | 2 |
| -0.648 | -0.186 | -0.0705 | inactive | Csgalnact (Chondroitin sulfate N-acetylgalactosaminyltransferase) | 1 |
| -0.201 | 0.494 | -0.258 | inactive | CG15628 | 1 |
| 0.0277 | -0.703 | -0.0126 | inactive | CG15628 | 2 |
| -2.19 | -2.21 | 0.104 | active | Cog7 (Component of oligomeric golgi complex 7) | 1 |
| -6.91 | -0.0279 | -0.634 | inactive | MESK2 (Misexpression suppressor of KSR 2) | 1 |
| -1.6 | 0.302 | -0.883 | inactive | MESK2 (Misexpression suppressor of KSR 2) | 2 |
| 0.284 | -0.0218 | 0.123 | inactive | Mur89F (Mucin related 89F) | 1 |
| -0.482 | 0.388 | 0.81 | inactive | Mur89F (Mucin related 89F) | 2 |
| 0.823 | 0.384 | -5.89 | inactive | CG10559 | 1 |
| -0.211 | 1.79 | -9.29 | inactive | CG10559 | 2 |
| 0.591 | 1.31 | 0.758 | inactive | kat80 (katanin 80) | 1 |
| 0.341 | -0.942 | -0.0497 | inactive | kat80 (katanin 80) | 2 |
| -0.44 | -1.11 | -0.463 | inactive | bma (black match) | 1 |
| -0.794 | -6.61 | -1.45 | inactive | bma (black match) | 2 |
| 0.269 | -0.813 | -0.305 | inactive | bma (black match) | 3 |
| 1.09 | 2.63 | 0.406 | inactive | Pka-R1 (Protein kinase, cAMP-dependent, regulatory subunit type 1) | 1 |
| -2.02 | 0.0953 | -1.43 | inactive | Pka-R1 (Protein kinase, cAMP-dependent, regulatory subunit type 1) | 2 |
| -0.0604 | -1.31 | 0.128 | inactive | Pka-R1 (Protein kinase, cAMP-dependent, regulatory subunit type 1) | 3 |
| 0.607 | -0.902 | 1.37 | inactive | Pka-R1 (Protein kinase, cAMP-dependent, regulatory subunit type 1) | 4 |
| 1.8 | 2.07 | 0.00454 | active | Rpn12 (Regulatory particle non-ATPase 12) | 1 |
| 1.49 | 2.45 | 2.22 | active | Rpn12 (Regulatory particle non-ATPase 12) | 2 |
| -3.81 | -1.44 | -4.32 | inactive | SmydA-3 (SET and MYND domain containing, arthropod-specific, member 3) | 1 |
| 0.798 | 0.396 | 1.22 | inactive | SmydA-3 (SET and MYND domain containing, arthropod-specific, member 3) | 2 |
| 0.96 | 1.56 | 0.836 | inactive | SmydA-3 (SET and MYND domain containing, arthropod-specific, member 3) | 3 |
| -0.052 | 0.0407 | 0.433 | inactive | CG32694 | 1 |
| 0.781 | -5.47 | -1.13 | inactive | CG32694 | 2 |
| -0.526 | -0.0143 | -0.798 | inactive | CG32694 | 3 |
| -0.626 | -1.1 | -2.89 | inactive | CG32694 | 4 |
| 0.508 | 0.608 | -1.15 | inactive | CG32694 | 5 |
| 0.808 | 1.2 | -2.28 | inactive | sina (seven in absentia) | 1 |
| 0.163 | 0.389 | 0.194 | inactive | Snrk (SNF related kinase) | 1 |
| -1.16 | 0.331 | -0.658 | inactive | Snrk (SNF related kinase) | 2 |
| 1.22 | -1.02 | -0.491 | inactive | Gr23a (Gustatory receptor 23a) | 1 |
| -1.16 | 0.926 | -2.2 | inactive | bib (big brain) | 1 |
| -3.89 | -4.54 | -0.474 | active | Use1 (Unconventional SNARE in the ER 1) | 1 |
| 0.354 | 2.23 | -6.02 | inactive | Use1 (Unconventional SNARE in the ER 1) | 2 |
| -0.414 | -0.556 | 0.348 | inactive | Vha55 (Vacuolar H[+]-ATPase 55kD subunit) | 1 |
| -0.341 | -1.04 | -2.58 | inactive | Vha55 (Vacuolar H[+]-ATPase 55kD subunit) | 2 |
| 0.103 | -0.986 | -1.32 | inactive | Nagk (N-acetylglucosamine kinase) | 1 |
| 1.34 | 0.278 | 0.545 | inactive | Nagk (N-acetylglucosamine kinase) | 2 |
| -0.178 | 0.242 | -0.255 | inactive | Tsp3A (Tetraspanin 3A) | 1 |
| -0.325 | 1.19 | 0.527 | inactive | Tsp3A (Tetraspanin 3A) | 2 |
| 0.0037 | -1.47 | -0.444 | inactive | LManII (Lysosomal alpha-mannosidase II) | 1 |
| 0.43 | -0.0114 | -0.271 | inactive | CG7518 | 1 |
| 0.147 | 0.435 | 0.919 | inactive | CG7518 | 2 |
| -5.85 | -1.06 | 0.23 | inactive | Or85d (Odorant receptor 85d) | 1 |
| 0.059 | 0.177 | 1.54 | inactive | Or85d (Odorant receptor 85d) | 2 |
| 0.448 | 0.0957 | -2.28 | inactive | Fmo-1 (Flavin-containing monooxygenase 1) | 1 |
| -2.97 | -0.618 | -2.57 | inactive | Fmo-1 (Flavin-containing monooxygenase 1) | 2 |
| -6.33 | 1.11 | 0.168 | inactive | msk (moleskin) | 1 |
| 0.229 | 0.788 | -1.85 | inactive | msk (moleskin) | 2 |
| -0.146 | 0.943 | -1.08 | inactive | Cyp4d1 (Cytochrome P450 4d1) | 1 |
| -0.197 | 0.668 | 0.00337 | inactive | Cyp4d1 (Cytochrome P450 4d1) | 2 |
| 0.886 | 0.431 | 0.818 | inactive | Cyp4d1 (Cytochrome P450 4d1) | 3 |
| 0.258 | -0.74 | 0.393 | inactive | rho-7 (rhomboid-7) | 1 |
| 1.03 | 0.174 | 0.709 | inactive | nAChRalpha1 (nicotinic Acetylcholine Receptor alpha1) | 1 |
| 0.447 | 0.487 | 0.594 | inactive | nAChRalpha1 (nicotinic Acetylcholine Receptor alpha1) | 2 |
| 0.811 | -7.52 | 1.32 | inactive | nAChRalpha1 (nicotinic Acetylcholine Receptor alpha1) | 3 |
| -1.59 | 0.236 | 1.65 | inactive | nAChRalpha1 (nicotinic Acetylcholine Receptor alpha1) | 4 |
| 0.533 | -0.824 | 0.0121 | inactive | CG14391 | 1 |
| 0.605 | 0.657 | 0.236 | inactive | CG14391 | 2 |
| -0.151 | -0.808 | -1.02 | inactive | Alr (Augmenter of liver regeneration) | 1 |
| 0.649 | -6.7 | -0.34 | inactive | PAPLA1 (Phosphatidic Acid Phospholipase A1) | 1 |
| 0.724 | 0.467 | 0.905 | inactive | PAPLA1 (Phosphatidic Acid Phospholipase A1) | 2 |
| 0.195 | -8.64 | 0.877 | inactive | CG30059 + CG18278 | 1 |
| -0.565 | -7.2 | 1.13 | inactive | Der-1 (Derlin-1) | 1 |
